{
  "source": "patent US20060106070A1",
  "about": "“Novel pyridine-based metal chelators as antiviral agents” (Bioflexis, LLC, priority 2004, published 2006)",
  "origin": "cited, not measured here",
  "key": {"[1]": {"target": "HIV-1 integrase (Human immunodeficiency virus type 1 group M subtype B, UniProt P04585)", "details": "in vitro enzyme inhibition assay"}, "[2]": {"system": "HIV", "details": "ex-vivo viral inhibition assay"}, "[3]": {"target": "T1, HIV-1 integrase (Human immunodeficiency virus type 1 group M subtype B, UniProt P12497)", "details": "result in words"}, "[4]": {"target": "T1, HIV-1 integrase", "details": "result in words", "remark": "listed apart in the source"}},
  "data": [
    {"molecule": "O=C(O)C(=O)CC(=O)c1cc2cc(Cl)ccc2[nH]1", "values": [
      {"measurement": "IC50", "setting": "[1]", "value": 20, "unit": "nM"},
      {"measurement": "EC50", "setting": "[2]", "value": 700, "unit": "nM"},
      {"measurement": "inhibition of strand transfer reaction", "setting": "[3]", "value": "inhibit both reactions"},
      {"measurement": "inhibition of 3′ processing", "setting": "[4]", "value": "inhibit both reactions"}
    ]}
  ]
}
